PubChem BioAssay AID504761 | Drosophila RNAi Screening Center – 2011
Purpose: 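Insect host genes that dengue virus relies on to spread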 (primary screen). Cells: D.Mel-2 cells from Drosophila. Reagent: long dsRNA against Drosophila genes. Conditions: infection with dengue virus type 2; dose and infection time not stated. Detection: 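Per well on two replicate plates, imaging gave the percent of cells positive for viral envelope protein, ranked by infection, and a nuclear count of cells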. Direction: infection score: higher = more virus-infected cells. Hit rule: 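Very low infection ranking in both replicate wells (chance probability at most 0.065), then a retest showing infection dropped 1.5-fold or more at p below 0.05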. Calls: active = confirmed: knock-down lowers infection; inactive = not picked or not confirmed.
The deposit covers about 22,000 reagents; this is an unselected part of those that have a named target and a result. Of all reagents, 116 (0.52%) are marked active. 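Calls depend on retest data that are not deposited; infection was ranked per plate without normalising between plates; the unit of the infection score is not given.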 Names joined by + are all predicted targets of the reagent. Not all columns of the deposit are shown. No sequences are given here. The record does not give: the amount of reagent, the time to read-out.

CG31900 (retired record) [DRSC21835] | infection score, replicate 1 = 4.86; call = inactive
MBD-like (Methyl-CpG binding domain protein-like) [DRSC16996] | infection score, replicate 1 = 5.64; call = inactive
CG11686 [DRSC14350] | infection score, replicate 1 = 1.07; call = inactive
CG2065 [DRSC06813] | infection score, replicate 1 = 13.8; call = inactive
CG2065 [DRSC21328] | infection score, replicate 1 = 5.38; call = inactive
CG2065 [DRSC29164] | infection score, replicate 1 = 14.3; call = inactive
CG15393 (retired record) [DRSC00407] | infection score, replicate 1 = 1.69; call = inactive
CG15393 (retired record) [DRSC27448] | infection score, replicate 1 = 11.1; call = inactive
btn (buttonless) [DRSC26486] | infection score, replicate 1 = 2.94; call = inactive

3 of these entries, reformatted.
gene | amplicon | infection score, replicate 1 | call
MBD-like (Methyl-CpG binding domain protein-like) | DRSC16996 | 5.64 | inactive
CG11686 | DRSC14350 | 1.07 | inactive
CG2065 | DRSC06813 | 13.8 | inactive

Next entries follow.
Gart (GART trifunctional enzyme) [DRSC03481] | infection score, replicate 1 = 10.1; call = inactive
Gart (GART trifunctional enzyme) [DRSC25995] | infection score, replicate 1 = 14.9; call = inactive
hoe2 (hoepel2) [DRSC00459] | infection score, replicate 1 = 8.56; call = inactive
Msr-110 [DRSC11227] | infection score, replicate 1 = 5.83; call = inactive
Msr-110 [DRSC25246] | infection score, replicate 1 = 2.74; call = inactive
Obp57a (Odorant-binding protein 57a) [DRSC22047] | infection score, replicate 1 = 1.76; call = inactive
Obp57a (Odorant-binding protein 57a) [DRSC25699] | infection score, replicate 1 = 1.94; call = inactive
CG14767 [DRSC06500] | infection score, replicate 1 = 2.52; call = inactive
CG14767 [DRSC28418] | infection score, replicate 1 = 14.7; call = inactive
dco (discs overgrown) [DRSC16929] | infection score, replicate 1 = 8.08; call = inactive
dco (discs overgrown) [DRSC29211] | infection score, replicate 1 = 9.86; call = inactive
CG5004 [DRSC19929] | infection score, replicate 1 = 17.7; call = inactive
CG5004 [DRSC19930] | infection score, replicate 1 = 12.2; call = inactive
Roc1b + Cdc5 [DRSC08687] | infection score, replicate 1 = 1.58; call = inactive
Roc1b + Cdc5 [DRSC26879] | infection score, replicate 1 = 1.52; call = inactive
Noc1 (Nucleolar complex protein 1) [DRSC10921] | infection score, replicate 1 = 5.62; call = inactive
mino (minotaur) [DRSC14132] | infection score, replicate 1 = 4.1; call = inactive
hpRNA:CR18854 + IP3K1 [DRSC02218] | infection score, replicate 1 = 8.19; call = inactive
